What follows are binders tested against H5 HA (A/Vietnam/1194/04) (influenza A virus A/Vietnam/1194/04 …) (assay: SPR).

Binder	koff [s⁻¹]
chimeric H5M9 (antibody, V domains shown) VH: EVHLQQSGPELVKPGASVKMSCKTSGYTFTEYTIHWMKQSHGKSLEWIGGIFPNNGDTTYNQKFKIRATLTVGKSSSTAYMDLRSLTSEDSAVYYCVRNYGSSYGYFDVWGAGTTVTVSS VL: DIVLTQSPGSLTVSLGQRATISCRASESVDNFGKSFMHWYQQKPGQSPKLLIYRASNREFGIPARFNGSGSGTDFALTINPVEADDVATYFCQQSNEDPRTFGGGTKLEIK	2.49e-05
mouse monoclonal antibody H5M9 (antibody, V domains shown) VH: EVHLQQSGPELVKPGASVKMSCKTSGYTFTEYTIHWMKQSHGKSLEWIGGIFPNNGDTTYNQKFKIRATLTVGKSSSTAYMDLRSLTSEDSAVYYCVRNYGSSYGYFDVWGAGTTVTVSS VL: DIVLTQSPGSLTVSLGQRATISCRASESVDNFGKSFMHWYQQKPGQSPKLLIYRASNREFGIPARFNGSGSGTDFALTINPVEADDVATYFCQQSNEDPRTFGGGTKLEIK	2.1e-05
CDR-grafted (humanized) antibody hH5M9 (antibody, V domains shown) VH: EVKLQQSGPELVKPGASVKMSCKASGYTFTEYTIHWMKQKPGQGLEWIGGIFPNNGDTTYNQKFKIRATLTVDKSSSTAYMELSSLTSEDSAVYYCARNYGSSYGYFDVWGQGTTVTVSS VL: DIVLTQSPASLAVSLGQRATISCRASESVDNFGKSFMHWYQQKPGQPPKLLIYRASNREFGVPARFSGSGSGTDFTLNIHPVEEEDAATYYCQQSNEDPRTFGGGTKLEIK	0.00018

— article PMC3928294 (2014)
